A mixed list of measured activities; the numbers were collected in NIAID ChemDB.

Percent inhibition refers to the dose given; in toxicity tests it is the harm to the cells. Neighbouring rows are from separate reports. MIC50, MIC90 and the like: level of inhibition, or share of isolates inhibited. An empty or dashed field is not shown. ECn: concentration that inhibits the pathogen or its effect by n%. ICn is the concentration giving n% inhibition.

structure,test,organism,strain,cells,target,method,endpoint,tested at,result
Cc1nc(NCCCCNc2ccnc3cc(Cl)ccc23)nc(-c2ccccc2)c1C(=O)OC(C)C,culture,Cryptococcus neoformans,96806,-,-,-,MIC99,-,45.3 µg/mL
COc1ccc(OC)c(N(C)Cc2cccc3nc(N)nc(N)c23)c1,target,Cryptosporidium parvum,TYPE 2,-,Dihydrofolate reductase,-,IC50,-,>10 µM
O=S(=O)(O)c1cccc2c(O)cccc12,culture,Rhinovirus,-,Human amnion AV3 cells,-,cytopathic effect,inhibition,10 µg/mL,0%
CCOC(=O)c1c(C)nc(NCCCCNc2ccnc3cc(Cl)ccc23)nc1-c1ccc(F)cc1,culture,Cryptococcus neoformans,WP,-,-,-,MIC99,-,5.7 µg/mL
COc1ccc(-c2cncc(N3CCN(c4ccncc4)CC3)n2)cc1,target,Cytomegalovirus,-,-,UL97 kinase,-,IC50,-,<1 µM
CN(Cc1ccc2nc(N)nc(N)c2n1)c1cccc(Cl)c1,target,Cryptosporidium parvum,TYPE 1,-,Dihydrofolate reductase,-,IC50,-,0.024 µM
Nc1ccccc1S(=O)(=O)O,culture,Rhinovirus,-,Human embryonic lung cells,-,cytopathic effect,inhibition,5 µg/mL,10%
CCOC(=O)c1c(C)nc(NCCCCNc2ccnc3cc(Cl)ccc23)nc1-c1ccccc1,culture,Cryptococcus gattii,196L/03,-,-,-,MIC99,-,8 µg/mL
CCC(CC)[C@H](NC(C)=O)[C@@H]1[C@H](O)[C@@H](C(=O)O)C[C@H]1N=C(N)N,culture,Influenza A virus,H1N1 A/Beijing/262/95,MDCK,-,-,EC50,-,0.36 µM
CCOC(=O)N1CCN(C(=O)c2ccc(N(C)Cc3ccc4nc(N)nc(N)c4n3)cc2)CC1,target,Cryptosporidium parvum,TYPE 1,-,Dihydrofolate reductase,-,IC50,-,3.2 µM
Cc1cc(CCCOc2c(C)cc(-c3noc(C(F)(F)F)n3)cc2C)on1,culture,Rhinovirus,Isolate 1,OHIO HELA-I,-,cytopathic effect / visual reading,EC50,-,10 µg/mL
CCOc1ccc(-c2cncc(N3CCN(c4ccc(OC)c(OC)c4)CC3)n2)cc1,target,Cytomegalovirus,-,-,UL97 kinase,-,IC50,-,<10 µM
COc1ccc(OC)c(-c2sc3nc(N)nc(N)c3c2C)c1,target,Cryptosporidium parvum,TYPE 2,-,Dihydrofolate reductase,-,IC50,-,2.6 µM
NCS(=O)(=O)O,culture,Herpes simplex virus,-,Human amnion AV3 cells,-,cytopathic effect,inhibition,5 µg/mL,10%
COc1ccccc1N1CCN(c2cncc(-c3ccc(SC)cc3)n2)CC1,target,Cytomegalovirus,-,-,UL97 kinase,-,IC50,-,<10 µM
COc1cc(-c2ccc(N=Nc3ccc4c(S(=O)(=O)O)cc(S(=O)(=O)O)c(N)c4c3O)c(OC)c2)ccc1N=Nc1ccc2c(S(=O)(=O)O)cc(S(=O)(=O)O)c(N)c2c1O,culture,Rhinovirus,-,Human amnion AV3 cells,-,cytopathic effect,inhibition,5 µg/mL,0%
CC(C)(C)C1CCc2nc(N)nc(N)c2C1,target,Cryptosporidium parvum,TYPE 1,-,Dihydrofolate reductase,-,IC50,-,0.21 µM
Nc1cc(S(=O)(=O)[O-])cc2cc(S(=O)(=O)[O-])ccc12,culture,Herpes simplex virus,-,Human conjunctiva cells,-,cytopathic effect,inhibition,5 µg/mL,0%
CC(=O)c1ccc(-c2cncc(N3CCN(c4ccc(C)cc4C)CC3)n2)s1,target,Cytomegalovirus,-,-,UL97 kinase,-,IC50,-,<100 µM
Cc1nc(NCCCCNc2ccnc3cc(Cl)ccc23)nc(-c2ccccc2[N+](=O)[O-])c1C(=O)OC(C)C,culture,Cryptococcus gattii,L-28/02,-,-,-,MIC99,-,8 µg/mL
CCOC(=O)c1ccc(OCCC2CCN(c3ccc(C)nn3)CC2)cc1,culture,Rhinovirus,1857-CV51 (ICAM-1 receptor group 67),KB,-,neutral red,EC50,-,0.054 µM
COc1ccc(C(C)C)cc1-c1cncc(N2CCN(c3ccncc3)CC2)n1,target,Cytomegalovirus,-,-,UL97 kinase,-,inhibition,10 µM,>15%
Nc1ccc(S(=O)(=O)O)cc1,culture,Adenovirus,TYPE 3,Human embryonic lung cells,-,cytopathic effect,inhibition,5 µg/mL,0%
CN(Cc1ccc2nc(N)nc(N)c2n1)c1ccc(Cl)c(Cl)c1,target,Cryptosporidium parvum,TYPE 1,-,Dihydrofolate reductase,-,IC50,-,0.02 µM
C=CCc1ccc(OC)c(OC)c1,culture,Candida krusei,139,-,-,turbidity,MIC90,-,350 µg/mL
Fc1ccc(N2CCCCC2)c(NC(=S)c2ccncc2)c1,host protein,-,-,-,DYRK3,kinase activity,inhibition,10 µM,72.1%
Nc1nc(N)c2cc(Cl)ccc2n1,target,Cryptosporidium parvum,TYPE 2,-,Dihydrofolate reductase,-,IC50,-,>10 µM

The first 2 rows once more:

{"structure": "Cc1nc(NCCCCNc2ccnc3cc(Cl)ccc23)nc(-c2ccccc2)c1C(=O)OC(C)C", "test": "culture", "organism": "Cryptococcus neoformans", "strain": "96806", "endpoint": "MIC99", "result": "45.3 µg/mL"}
{"structure": "COc1ccc(OC)c(N(C)Cc2cccc3nc(N)nc(N)c23)c1", "test": "target", "organism": "Cryptosporidium parvum", "strain": "TYPE 2", "target": "Dihydrofolate reductase", "endpoint": "IC50", "result": ">10 µM"}